Pooled drug test results. Numbers come from NIAID ChemDB, via PubChem.

All rows: tests in culture; organism: Candida albicans; read-out: MIC

Neighbouring rows are from separate reports.

| compound | strain | value |
|---|---|---|
| CCCCCOc1ccc(-c2ccc(-c3ccc(C(=O)N[C@H]4CCCNC(=O)C5C[C@@H](O)N5C(=O)C(C(C)O)NC(=O)C(CCc5ccc(O)cc5)NC(=O)C5C[C@@H](O)CN5C(=O)C(C(C)O)NC4=O)cc3)cc2)cc1 | ATCC 10231 | 0.78 µg/mL |
| Cc1c(Sc2ccccc2)[n+](=O)c2cc(C(F)(F)F)ccc2n1[O-] | Clinical isolate 10 | 31.25 µg/mL |
| NC(=NC1CCCC1)c1ccc(-c2ccc(-c3ccc(C(N)=NC4CCCC4)cc3)o2)cc1 | Isolate 3022 fluconazole-resistant | 12.5 µg/mL |
| C[C@@H](n1cnc2cccc(Cl)c2c1=O)[C@](O)(Cn1cncn1)c1ccc(F)cc1F | 76 strains | 10 µg/mL |
| CN(CCCC#CC(C)(C)C)c1cccc2c1CCC(=O)N2 | Clinical isolate 2 | 15.6 µg/mL |
| C[C@@H](n1cnc2cc(N(C)C)ccc2c1=O)[C@](O)(Cn1cncn1)c1ccc(F)cc1F | 60 strains | 0.31 µg/mL |
| CCCCCOc1ccc(-c2ccc(-c3ccc(C(=O)N[C@H]4CCCNC(=O)[C@@H]5C[C@H](N)CN5C(=O)[C@H](CCC(=O)O)NC(=O)C(CCc5ccc(O)cc5)NC(=O)[C@@H]5C[C@@H](O)CN5C(=O)[C@H]([C@@H](C)O)NC4=O)cc3)cc2)cc1 | ATCC 62376 | 0.2 µg/mL |
| CCC(C)n1ncn(-c2ccc(N3CCN(c4ccc(OC[C@H]5CO[C@](Cn6cncn6)(c6ccc(Cl)cc6Cl)O5)cc4)CC3)cc2)c1=O | 76 strains | 10 µg/mL |
| CCOc1cc2c(cc1F)n([O-])c(C)c(S(=O)(=O)c1ccccc1)[n+]2=O | Clinical isolate 6 | 15.6 µg/mL |
| CCCCCOc1ccc(-c2ccc(-c3ccc(C(=O)N[C@H]4CCCNC(=O)C5C[C@H](N=[N+]=[N-])N5C(=O)C(C(C)O)NC(=O)C(CCc5ccc(O)cc5)NC(=O)C5C[C@@H](O)CN5C(=O)C(C(C)O)NC4=O)cc3)cc2)cc1 | ATCC 10231 | 0.78 µg/mL |
| C[C@@H](n1cnc2ccccc2c1=O)[C@](O)(Cn1cncn1)c1ccc(F)cc1F | 406 strains | ≤0.03 µg/mL |
| CCCCCCCCOc1ccc(N2CCN(c3ccc(C(=O)N[C@H]4CCCNC(=O)C5C[C@H](N)CN5C(=O)C(C(C)O)NC(=O)C(Cc5ccc(N)cc5)NC(=O)C5CCCN5C(=O)C(C(C)O)NC4=O)cc3)CC2)cc1 | ATCC 10231 | 0.39 µg/mL |
| O=[n+]1c(Sc2ccccc2)c(CBr)n([O-])c2ccccc21 | Clinical isolate 5 | 31.25 µg/mL |
| C[C@@H](n1cnc2cc(N(C)C)c(F)cc2c1=O)[C@](O)(Cn1cncn1)c1ccc(F)cc1F | 406 strains | ≤0.03 µg/mL |
| CCCCCOc1ccc(-c2ccc(-c3ccc(C(=O)N[C@H]4CCCNC(=O)C5CN(C(=O)OCc6ccccc6)CN5C(=O)C(C(C)O)NC(=O)C(CCc5ccc(O)cc5)NC(=O)C5C[C@@H](O)CN5C(=O)C(C(C)O)NC4=O)cc3)cc2)cc1 | ATCC 10231 | 100 µg/mL |

A second listing of 2 rows from above:

compound | strain | value
CCCCCCCCOc1ccc(N2CCN(c3ccc(C(=O)N[C@H]4CCCNC(=O)C5C[C@H](N)CN5C(=O)C(C(C)O)NC(=O)C(Cc5ccc(N)cc5)NC(=O)C5CCCN5C(=O)C(C(C)O)NC4=O)cc3)CC2)cc1 | ATCC 10231 | 0.39 µg/mL
C[C@@H](n1cnc2cc(N(C)C)c(F)cc2c1=O)[C@](O)(Cn1cncn1)c1ccc(F)cc1F | 406 strains | ≤0.03 µg/mL